## HIV-1 LAI Vif substitutions under APOBEC3G selection

Values reported by Langley et al. 2025, preprint (doi:10.1101/2025.10.20.683452).

Protein: Vif of HIV-1 LAI (a laboratory-adapted subtype B strain). Residues 12-115 were scanned and are shown below; the first letter is residue 12.
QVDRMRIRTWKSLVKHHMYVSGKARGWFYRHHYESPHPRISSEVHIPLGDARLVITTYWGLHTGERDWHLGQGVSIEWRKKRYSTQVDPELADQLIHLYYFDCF

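Pooled viruses with one designed change each in Vif went through two 72 h rounds in SupT1 cells expressing APOBEC3G. Frequencies after the second round, in three biological replicates, were compared with the merged pool after the first round. Changes do not touch integrase, since the pol overlap was removed.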

Values are log2 enrichment relative to wild type (0); lower means weaker defence against APOBEC3G and poorer growth. Substitutions are written as wild-type residue, site number, new residue. This list holds changes to histidine only. The median of three replicates is given, with the replicates in brackets. Input reads are the counts in the merged round-one pool, before selection. Some changes are missing from the data or left out.

G82H (input reads 33) gave -0.56 (-0.83 / 4.91 / -0.56). For Q83H (input reads 159) the result was -0.41 (-0.41 / -0.58 / 1.50). With G84H (input reads 343) the assay gave -0.55 (-0.55 / 1.80 / -2.79). For S86H (input reads 96) the result was 0.92 (5.62 / -1.86 / 0.92). E88H (input reads 495) read -3.98 (-3.98 / -2.34 / -4.46). For W89H (input reads 417) the result was -3.75 (-3.75 / -4.62 / -3.69). With R90H (input reads 334) the assay gave -1.83 (-2.60 / 1.79 / -1.83). With K91H (input reads 381) the assay gave -4.79 (-1.70 / -5.62 / -4.79). With K92H (input reads 29) the assay gave 1.84 (1.24 / 1.84 / 5.86).

For T96H (input reads 140) the result was -1.31 (-1.31 / -4.19 / -0.84). Q97H (input reads 460) gave 1.52 (3.50 / 1.52 / -0.58). For D99H (input reads 409) the result was -0.67 (-1.80 / 1.40 / -0.67). For E101H (input reads 189) the result was -2.57 (-2.57 / -3.29 / -0.44). L102H (input reads 294) gave -2.40 (-2.40 / 2.05 / -3.22). For A103H (input reads 176) the result was -4.81 (-4.81 / -3.38 / -5.28). D104H (input reads 134) gave -0.26 (-0.98 / -0.26 / 0.05). Q105H (input reads 476) read -1.73 (-1.73 / 0.90 / -2.30). L106H (input reads 20) read -2.14 (-1.69 / -2.14 / -2.17).

I107H (input reads 550) gave -1.91 (-1.91 / -3.70 / -1.50). Y110H (input reads 145) gave -0.84 (-0.84 / -4.23 / 0.98). With Y111H (input reads 63) the assay gave 0.45 (0.76 / 0.13 / 0.45). For F112H (input reads 526) the result was -2.48 (-1.63 / -2.48 / -3.40). With D113H (input reads 406) the assay gave 1.18 (1.18 / -1.33 / 1.20). F115H (input reads 265) read -1.16 (-1.16 / 2.04 / -2.71).

The opening 2 entries, copied out:

G82H (input reads 33): -0.56 (-0.83 / 4.91 / -0.56).
Q83H (input reads 159): -0.41 (-0.41 / -0.58 / 1.50).

Positive scores are uncertain; some enriched variants did not exclude APOBEC3G in a separate test. Replicates agree only moderately (rank correlation about 0.4-0.65); scores from under about 50 input reads tend to be too high.